Measured values from several laboratories, pooled; numbers as filed in NIAID ChemDB.

Common to all: whole-cell or culture tests; organism: Mycobacterium avium complex

Two numbers with a dash give a range or band. MIC50, MIC90 and the like: level of inhibition, or share of isolates inhibited. Blank or dashed fields: not listed here. Lines come from different laboratories, so protocols vary.

compound	read by	strain	endpoint	result
CC[C@H]1OC(=O)[C@H](C)[C@@H](O[C@H]2C[C@@](C)(OC)[C@@H](O)[C@H](C)O2)[C@H](C)[C@@H](O[C@@H]2O[C@H](C)C[C@H](N(C)C)[C@H]2O)[C@](C)(OC)C[C@@H](C)C(=O)[C@H](C)[C@@H](O)[C@]1(C)O		MO-1	MIC	1 µg/mL
CO[C@H]1/C=C/O[C@@]2(C)Oc3c(C)c(O)c4c(O)c(c(/C=N/N5CCN(C)CC5)c(O)c4c3C2=O)NC(=O)/C(C)=C\C=C\[C@H](C)[C@H](O)[C@@H](C)[C@@H](O)[C@@H](C)[C@H](OC(C)=O)[C@@H]1C		1168	MIC	8 µg/mL
NC1CCN(c2nc3c(cc2F)c(=O)c(C(=O)O)cn3-c2ccc(F)cc2F)C1		25 isolates	MIC50	>8 µg/mL
NC[C@H]1O[C@H](O[C@H]2[C@H](O)[C@@H](O[C@H]3O[C@H](CO)[C@@H](O)[C@H](N)[C@H]3O)[C@H](N)C[C@@H]2N)[C@H](O)[C@@H](O)[C@@H]1O		Isolate 93	MIC	25 µg/mL
O=C(O)c1cn(C2CC2)c2c(F)c(N3CCS(=O)(=O)CC3)c(F)cc2c1=O		14 strains	MIC90	4 µg/mL
CCn1cc(C(=O)O)c(=O)c2cc(F)c(N3CCN(C(C)C)CC3)cc21		14 strains	MIC50	≥32 µg/mL
C[C@@H]1CN(c2c(F)c(N)c3c(=O)c(C(=O)O)cn(C4CC4)c3c2F)C[C@H](C)N1		1915112	MIC	2 µg/mL
NC[C@H]1O[C@H](O[C@H]2[C@H](O)[C@@H](O[C@H]3O[C@H](CO)[C@@H](O)[C@H](N)[C@H]3O)[C@H](N)C[C@@H]2N)[C@H](O)[C@@H](O)[C@@H]1O		N-945 (HIV+)	MIC	4 µg/mL
O=C(O)c1cn(C2CC2)c2c(F)c(N3CCC(n4ccnc4)C3)c(F)cc2c1=O		1172733	MIC	16 µg/mL
CC1COc2c(N3CCN(C)CC3)c(F)cc3c(=O)c(C(=O)O)cn1c23			MIC90	8–128 µg/mL
Brc1ccc(CSc2nc3ccccc3[nH]2)cc1		MY330/88	MIC	>62 µM
CC(C)N=c1cc2n(-c3ccc(Cl)cc3)c3ccccc3nc-2cc1Nc1ccc(Cl)cc1		804/HIV+	MIC	0.25 µg/mL
Clc1ccccc1C(c1ccccc1)(c1ccccc1)n1ccnc1		LPR	MIC	0.03 µg/mL
CC[C@H]1OC(=O)[C@H](C)[C@@H](O[C@H]2C[C@@](C)(OC)[C@@H](O)[C@H](C)O2)[C@H](C)[C@@H](O[C@@H]2O[C@H](C)C[C@H](N(C)C)[C@H]2O)[C@](C)(OC)C[C@@H](C)C(=O)[C@H](C)[C@@H](O)[C@]1(C)O		3217	MIC	2 µg/mL
C[C@@H]1CN(c2c(F)c(N)c3c(=O)c(C(=O)O)cn(C4CC4)c3c2F)C[C@H](C)N1			MIC90	4 µg/mL
CN(C)c1c(F)c(N2CCC(N(C)C)C2)c(F)c2c1c(=O)c(C(=O)O)cn2C1CC1		1172733	MIC	32 µg/mL
CO[C@H]1/C=C/O[C@@]2(C)Oc3c(C)c(O)c4c(O)c(c(/C=N/N5CCN(C/C=C/c6ccccc6)CC5)c(O)c4c3C2=O)NC(=O)/C(C)=C\C=C\[C@H](C)[C@H](O)[C@@H](C)[C@@H](O)[C@@H](C)[C@H](OC(C)=O)[C@@H]1C		CH2	MIC	0.25 µg/mL
CN[C@@H]1[C@H](O[C@H]2[C@H](O[C@H]3[C@H](O)[C@@H](O)[C@H](N=C(N)N)[C@@H](O)[C@@H]3N=C(N)N)O[C@@H](C)[C@]2(O)C=O)O[C@@H](CO)[C@H](O)[C@H]1O		13887 (serotype 14)	MIC	0.4 µg/mL
CC[C@@H](CO)NCCN[C@@H](CC)CO		1854	MBC	15 µg/mL
CCC1CCN(c2c(F)cc3c(=O)c(C(=O)O)cn(C4CC4)c3c2F)C1			MIC90	8 µg/mL
CCn1cc(C(=O)O)c(=O)c2cc(F)c(N3CCNCC3)nc21		Isolate 861589	MIC	>30 µg/mL
CNC1CCN(c2c(F)cc3c(=O)c(C(=O)O)cn(C4CC4)c3c2F)C1		1988557	MIC	2 µg/mL
CC(C)N1CCN(c2nc3c(cc2F)c(=O)c(C(=O)O)cn3C(C)(C)C)CC1		14 strains	MIC50	1 µg/mL
CC1CN(c2cc3c(cc2F)c(=O)c(C(=O)O)cn3-c2ccc(F)cc2F)CCN1		3216	MIC	16 µg/mL
O=C(O)c1cn(-c2ccc(F)cc2)c2cc(N3CCNCC3)c(F)cc2c1=O		14 strains	MIC50	4 µg/mL
CN[C@@H]1[C@H](O[C@H]2[C@H](O[C@H]3[C@H](O)[C@@H](O)[C@H](N=C(N)N)[C@@H](O)[C@@H]3N=C(N)N)O[C@@H](C)[C@]2(O)C=O)O[C@@H](CO)[C@H](O)[C@H]1O		TMC 1473	MIC	1.56 µg/mL
Fc1ccc(CSc2nc3ccccc3[nH]2)cc1		MY330/88	MIC	62 µM
CCNCC1CCN(c2c(F)cc3c(=O)c(C(=O)O)c4n(c3c2F)CCS4)C1		14 strains	MIC50	≥32 µg/mL
CC[C@H]1OC(=O)[C@H](C)[C@@H](O[C@H]2C[C@@](C)(OC)[C@@H](O)[C@H](C)O2)[C@H](C)[C@@H](O[C@@H]2O[C@H](C)C[C@H](N(C)C)[C@H]2O)[C@](C)(OC)C[C@@H](C)C(=O)[C@H](C)[C@@H](O)[C@]1(C)O		866	MIC	2 µg/mL
CO[C@H]1/C=C/O[C@@]2(C)Oc3c(C)c(O)c4c(O)c(c(/C=N/N5CCN(C6CCCC6)CC5)c(O)c4c3C2=O)NC(=O)/C(C)=C\C=C\[C@H](C)[C@H](O)[C@@H](C)[C@@H](O)[C@@H](C)[C@H](OC(C)=O)[C@@H]1C		Serotype 20	MIC	>40 µg/mL
NCC[C@H](O)C(=O)N[C@@H]1C[C@H](N)[C@@H](O[C@H]2O[C@H](CN)[C@@H](O)[C@H](O)[C@H]2O)[C@H](O)[C@H]1O[C@H]1O[C@H](CO)[C@@H](O)[C@H](N)[C@H]1O		3213	MIC	64 µg/mL
NCC[C@H](O)C(=O)N[C@@H]1C[C@H](N)[C@@H](O[C@H]2O[C@H](CN)[C@@H](O)[C@H](O)[C@H]2O)[C@H](O)[C@H]1O[C@H]1O[C@H](CO)[C@@H](O)[C@H](N)[C@H]1O		5718	MIC	8 µg/mL
Fc1ccc(CSc2nc3ccccc3[nH]2)cc1F		MY330/88	MIC	32 µM
NCC[C@H](O)C(=O)N[C@@H]1C[C@H](N)[C@@H](O[C@H]2O[C@H](CN)[C@@H](O)[C@H](O)[C@H]2O)[C@H](O)[C@H]1O[C@H]1O[C@H](CO)[C@@H](O)[C@H](N)[C@H]1O		MO-1	MIC	32 µg/mL
NC(=S)c1cccc(CSc2nc3ccccc3[nH]2)c1		MY330/88	MIC	125 µM
C[C@@H]1CN(c2c(F)c(N)c3c(=O)c(C(=O)O)cn(C4CC4)c3c2F)C[C@H](C)N1		MO-1	MIC	1 µg/mL
NCC[C@H](O)C(=O)N[C@@H]1C[C@H](N)[C@@H](O[C@H]2O[C@H](CN)[C@@H](O)[C@H](O)[C@H]2O)[C@H](O)[C@H]1O[C@H]1O[C@H](CO)[C@@H](O)[C@H](N)[C@H]1O		1295/HIV-	MIC	2 µg/mL
CC(C)N=c1cc2n(-c3ccc(Cl)cc3)c3ccccc3nc-2cc1Nc1ccc(Cl)cc1		CH-3/HIV+	MIC	0.5 µg/mL
CCn1cc(C(=O)O)c(=O)c2cc(F)c(N3CCNCC3)cc21		CIPT 140310023	MIC	40 µg/mL
CCN(CC)CC1CCN(c2c(F)cc3c(=O)c(C(=O)O)cn(C4CC4)c3c2F)C1		1760694	MIC	16 µg/mL
C[C@@H]1CN(c2c(F)c(N)c3c(=O)c(C(=O)O)cn(C4CC4)c3c2F)C[C@H](C)N1	broth dilution	1	MIC	1 µg/mL
CC(C)(N)C1CCN(c2c(F)cc3c(=O)c(C(=O)O)cn(C4CC4)c3c2F)C1		1988557	MIC	4 µg/mL
CCNCC1CCN(c2c(F)cc3c(=O)c(C(=O)O)cn(C4(C)CC4)c3c2F)C1		14 strains	MIC90	16 µg/mL
O=C(O)c1cn(C2CC2)c2c(F)c(N3CC4CC3CN4)c(F)cc2c1=O		PI12/39	MIC	2 µg/mL
CN[C@@H]1[C@H](O[C@H]2[C@H](O[C@H]3[C@H](O)[C@@H](O)[C@H](N=C(N)N)[C@@H](O)[C@@H]3N=C(N)N)O[C@@H](C)[C@]2(O)C=O)O[C@@H](CO)[C@H](O)[C@H]1O		Isolate C-54	MIC	>400 µg/mL
CCNC(C)C1CCN(c2c(F)cc3c(=O)c(C(=O)O)cn(C4CC4)c3c2OC)C1			MIC90	8 µg/mL
NCCC(O)C(N)CC(=O)NC1CNC(=O)C(C2CCN=C(N)N2)NC(=O)/C(=C/NC(N)=O)NC(=O)C(CO)NC(=O)C(CO)NC1=O		TMC 1473	MIC	6.25 µg/mL
CO[C@H]1/C=C/O[C@@]2(C)Oc3c(C)c(O)c4c(O)c(c5c(c4c3C2=O)NC2(CCN(CC(C)C)CC2)N=5)=NC(=O)/C(C)=C\C=C\[C@H](C)[C@H](O)[C@@H](C)[C@@H](O)[C@@H](C)[C@H](OC(C)=O)[C@@H]1C		9141	MBC	16 µg/mL
CC(C)(C)n1cc(C(=O)O)c(=O)c2cc(F)c(N3CCNCC3)nc21			MIC50	4 µg/mL
CN[C@@H]1[C@@H](O)[C@@H](O[C@@H]2[C@@H](O)[C@H](O[C@H]3O[C@H](CN)CC[C@H]3N)[C@@H](N)C[C@H]2N)OC[C@]1(C)O		TMC 1403	MIC	0.1 µg/mL
O=C(O)c1cn(C2CC2)c2c(F)c(N3CCS(=O)(=O)CC3)c(F)cc2c1=O			MIC50	2 µg/mL
O=C(O)c1cn(C2CC2)c2nc(N3CCNCC3)c(F)cc2c1=O		14 strains	MIC50	4 µg/mL
CC[C@@H](CO)NCCN[C@@H](CC)CO		1339-3	MBC	15 µg/mL
NCC[C@H](O)C(=O)N[C@@H]1C[C@H](N)[C@@H](O[C@H]2O[C@H](CN)[C@@H](O)[C@H](O)[C@H]2O)[C@H](O)[C@H]1O[C@H]1O[C@H](CO)[C@@H](O)[C@H](N)[C@H]1O		Isolate 53	MIC	3.13 µg/mL
NNC(=O)c1ccncc1		13887 (serotype 14)	MIC	3.2 µg/mL
O=C(O)c1cn(C2CC2)c2c(F)c(N3CCS(=O)CC3)c(F)cc2c1=O			MIC90	4 µg/mL
Clc1ccccc1CSc1nc2ccccc2[nH]1		MY330/88	MIC	>62 µM
O=C(O)c1cn(C2CC2)c2c(F)c(N3CCS(=O)CC3)c(F)cc2c1=O		1988557	MIC	4 µg/mL
CC(C)(N)C1CCN(c2c(F)cc3c(=O)c(C(=O)O)cn(C4CC4)c3c2F)C1			MIC90	16 µg/mL
NC(=S)c1ccc(CSc2nc3ccccc3[nH]2)cc1		MY330/88	MIC	62 µM
CC(C)N1CCN(c2cc3c(cc2F)c(=O)c(C(=O)O)cn3C(C)(C)C)CC1		14 strains	MIC90	8 µg/mL

The last 8 rows once more:

compound | read by | strain | endpoint | result
NCC[C@H](O)C(=O)N[C@@H]1C[C@H](N)[C@@H](O[C@H]2O[C@H](CN)[C@@H](O)[C@H](O)[C@H]2O)[C@H](O)[C@H]1O[C@H]1O[C@H](CO)[C@@H](O)[C@H](N)[C@H]1O |  | Isolate 53 | MIC | 3.13 µg/mL
NNC(=O)c1ccncc1 |  | 13887 (serotype 14) | MIC | 3.2 µg/mL
O=C(O)c1cn(C2CC2)c2c(F)c(N3CCS(=O)CC3)c(F)cc2c1=O |  |  | MIC90 | 4 µg/mL
Clc1ccccc1CSc1nc2ccccc2[nH]1 |  | MY330/88 | MIC | >62 µM
O=C(O)c1cn(C2CC2)c2c(F)c(N3CCS(=O)CC3)c(F)cc2c1=O |  | 1988557 | MIC | 4 µg/mL
CC(C)(N)C1CCN(c2c(F)cc3c(=O)c(C(=O)O)cn(C4CC4)c3c2F)C1 |  |  | MIC90 | 16 µg/mL
NC(=S)c1ccc(CSc2nc3ccccc3[nH]2)cc1 |  | MY330/88 | MIC | 62 µM
CC(C)N1CCN(c2cc3c(cc2F)c(=O)c(C(=O)O)cn3C(C)(C)C)CC1 |  | 14 strains | MIC90 | 8 µg/mL